Pooled drug test results. Numbers come from NIAID ChemDB, via PubChem.

Common to all: whole-cell or culture tests; species: HIV-1; measure: inhibition

Rows are shuffled and stem from different studies. Blank or dashed fields: not listed here. Inhibition is in % at the dose shown (toxicity tests: loss of growth or viability).

| SMILES | method | cells | setting | tested at | strain | value |
|---|---|---|---|---|---|---|
| Cc1cn([C@H]2C[C@H](N=[N+]=[N-])[C@@H](COP(=O)(O)OC[C@H]3OC(O)[C@H](O)[C@@H](O)[C@@H]3O)O2)c(=O)[nH]c1=O | RT activity | U-937 | 14 d | 25 µM | LAV-Bru | 0% |
| COc1cc(O)c2c(=O)oc3cc(O)cc(C)c3c2c1 | luciferase | HeLa | pseudotyped | 60 µM | NL4-3 | 57% |
| C/C(=C(/CCO)SS/C(CCO)=C(\C)N(C=O)Cc1cnc(C)nc1N)N(C=O)Cc1cnc(C)nc1N | p24 | H9/HIV-1(MN) + H9 | - | 125 µM | MN | 90% |
| Nc1ncnc2c1ncn2[C@H]1CC[C@@H](CO)O1 | virus yield | U-937 | - | 100 µM | LAV-1 | >100% |
| O=S(=O)(O)c1cc(N=C=S)ccc1/C=C/c1ccc(N=C=S)cc1S(=O)(=O)O | syncytia | JM | - | 100 µg/mL | GB8 | 100% |
| Cc1cn([C@H]2C[C@H](N=[N+]=[N-])[C@@H](COP(=O)(O)OC[C@H]3OC(O)[C@@H](O)[C@@H](O)[C@@H]3O)O2)c(=O)[nH]c1=O | RT activity | CEM | 22 d | 25 µM | LAV-Bru | 82% |
| COC(=O)[C@@H](C)NC(=O)c1c(C)cc2c(c1O)-c1c(cc3c(c1O)C(=O)c1cc(OC)cc(O)c1C3=O)[C@H](O)[C@H]2O[C@@H]1O[C@H](C)[C@H](O)[C@H](O[C@@H]2OC[C@@H](O)[C@H](O)[C@H]2O)[C@H]1O | antigen | MT-4 | - | 30 µg/mL | IIIB | <10% |
| O=C1N(Cc2ccc(CO)cc2)[C@H](Cc2ccccc2)[C@H](O)[C@@H](O)[C@@H](Cc2ccccc2)N1Cc1ccc(CO)cc1 | p24 | PBMC | - | 0.18 µM | Clinical isolate V | 90% |
| COc1cc(O)c2c(c1)C(=O)c1c(cc3c(c1O)-c1c(cc(C)c(C(=O)N[C@H](C)C(=O)O)c1O)[C@H](O)[C@H]3O)C2=O | antigen | MT-4 | - | 30 µg/mL | IIIB | <10% |
| O=C(O)P(=O)(O)O | - | PBL | 14 d | 128 µM | IIIB | 0% |
| COc1cc(O)c2c(c1)C(=O)c1c(cc3c(c1O)-c1c(cc(C)c(C(=O)N[C@H](C)C(=O)O)c1O)[C@H](O[C@@H]1O[C@H](C)[C@H](N)[C@H](O[C@@H]4OC[C@@H](O)[C@H](O)[C@@H]4O)[C@H]1O)[C@H]3O)C2=O | antigen | MT-4 | - | 10 µg/mL | IIIB | 99% |
| CC(C)[C@H](NC(=O)c1ccc2ccccc2n1)C(=O)N[C@@H](Cc1ccccc1)[C@H](O)CN1CC[C@@H](OCc2ccncc2)C[C@H]1C(=O)NC(C)(C)C | p24 | PBMC | - | 0.029 µM | ddI-resistant | 90% |
| COc1cc(O)c2c(c1)C(=O)c1c(cc3c(c1O)-c1c(cc(C)c(C(=O)NC(C)C(=O)O)c1O)[C@H](OC1OC(C)C(N)C(O)C1O)[C@H]3O)C2=O | antigen | MT-4 | - | 10 µg/mL | IIIB | <10% |
| CC(C)Nc1cccnc1N1CCN(C(=O)c2cc3ccccc3[nH]2)CC1 | MTT | PBMC | - | 1 µM | Seropositive clinical isolate D | 100% |
| c1cc(CN2CCCNCCNCCCNCC2)ccc1CN1CCCNCCNCCCNCC1 | p24 | PBMC | - | 0.1 µM | SW23 CLADE C R5 | 0% |
| COc1cc(O)c2c(c1)C(=O)c1c(cc3c(c1O)-c1c(cc(C)c(C(=O)N[C@H](C)C(=O)O)c1O)[C@H](O[C@@H]1O[C@H](C)[C@H](O)[C@H](O[C@@H]4OC[C@@H](O)[C@H](O)[C@H]4O)[C@H]1O)[C@H]3O)C2=O | antigen | MT-4 | - | 10 µg/mL | IIIB | 77% |